# Results published in PubChem BioAssay AID504406 (Broad Institute, 2011).
# Amino acid sequences for entries named in this document (tags omitted). A change or cut given only in a name is not applied to a line headed by its entry.
# UniProt P9WIQ1: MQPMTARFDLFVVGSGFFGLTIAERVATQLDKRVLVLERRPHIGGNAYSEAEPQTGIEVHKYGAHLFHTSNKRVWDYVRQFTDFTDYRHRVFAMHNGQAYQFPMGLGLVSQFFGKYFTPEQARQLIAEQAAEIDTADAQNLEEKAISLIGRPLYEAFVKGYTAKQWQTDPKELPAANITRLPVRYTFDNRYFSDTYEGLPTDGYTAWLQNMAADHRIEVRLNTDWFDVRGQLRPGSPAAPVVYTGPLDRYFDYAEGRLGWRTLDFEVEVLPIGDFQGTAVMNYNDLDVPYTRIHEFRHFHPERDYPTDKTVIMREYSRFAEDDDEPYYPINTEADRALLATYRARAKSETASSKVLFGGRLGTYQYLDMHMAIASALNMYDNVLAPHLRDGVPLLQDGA
# The entries are a selection whose mix differs from that of the whole data set. Calls of active or inactive are those of the source. No stated cut-off is given here; in the data, active means inhibition above about 10% (passing the limit was not always enough); inconclusive means no clear call, values can overlap the other calls.
# Target: UDP-galactopyranose mutase (Mycobacterium tuberculosis (strain ATCC 25618 / H37Rv)) (UniProt P9WIQ1)
# Experiment: M. tuberculosis UGM enzyme inhibitors, primary screen, biochemical, fluorescence polarization, single point (AID 504406)
# Details: purified UGM, fluorescence polarization probe displacement; at 10 µM; stronger effect = higher value
row,SMILES,inhibition
1,O=[N+]([O-])c1cc([N+](=O)[O-])c(CCN2CCOCC2)c([N+](=O)[O-])c1,inactive: 0.672%
2,Nc1cccc2ccc([As](=O)(O)O)cc12,inactive: -1.83%
3,CCN(N=Nc1nonc1N)c1nonc1N,inactive: -2.9%
4,O=P(Nc1nc2ccc(Cl)cc2s1)(c1ccccc1)c1ccccc1,inactive: 0.96%
5,O=C(O)c1ccccc1[As](=O)(O)O,inactive: 2.84%
6,CC(=O)Nc1ccc([As](=O)(O)O)cc1,inactive: 0.384%
7,Cc1ccc(NP(=O)(Oc2ccccc2F)Oc2ccccc2F)nc1,inactive: -1.59%
8,CN(C(=O)Cc1ccc(Cl)c(Cl)c1)[C@H]1CCCC[C@@H]1N1CCCC1,inactive: 1.23%
9,CCOP(=O)(Nc1ccccc1)OCC,inactive: -1.22%
10,Cc1cc(SC(NC(=O)c2ccc(F)cc2)C(Cl)(Cl)Cl)ncn1 (centres undefined),inactive: -0.374%
11,Cc1c2non([O-])c-2c(C)[n+](=O)[n+]1[O-],inactive: -4.11%
12,O=C(NC(Sc1ccncn1)C(Cl)(Cl)Cl)c1ccccc1 (centres undefined),inactive: 0.162%
13,Oc1ccccc1CNc1ccccn1,inactive: -1.2%
14,CC(C)CC(=O)NC(Sc1ccc(Cl)cc1)C(Cl)(Cl)Cl (centres undefined),inactive: -1.4%
15,Nc1cc(N)c2nonc2c1[N+](=O)[O-],inactive: 0.669%
16,Cc1ccc(N/C(=N/P(=O)(N2CCOCC2)N2CCOCC2)N2CCOCC2)cc1,inactive: 5.43%
17,CN(C(=O)Cc1ccc(Cl)c(Cl)c1)[C@H]1CCCC[C@H]1N1CCCC1,inactive: -1.59%
18,NC(=O)c1cc([N+](=O)[O-])cc([N+](=O)[O-])c1N,inactive: -3.17%
19,Clc1ccc(Cl)c(NC2=NCC(CBr)S2)c1 (centres undefined),inactive: 2.92%
20,CN1CCCC(OC(=O)C(c2ccccc2)c2ccccc2)C1 (centres undefined),inactive: -1.18%
21,Cc1ccc(OP(=O)(Nc2nccs2)Oc2ccc(C)cc2)cc1,inactive: -0.478%
22,COc1ccccc1OP(=O)(Nc1ccc(C)cn1)Oc1ccccc1OC,inactive: -2.32%
23,CCN(/C(=N/P(=O)(N1CCOCC1)N1CCOCC1)N1CCOCC1)c1ccc(OC)cc1,inactive: -3.07%
24,C[N+]1=C2C=CC=CC=C2SC12C([N+](=O)[O-])=CC([N+](=O)[O-])=C[C-]2[N+](=O)[O-] (centres undefined),inactive: 3.76%
25,Nc1ccc([As](=O)(O)c2ccc(N)cc2)cc1,inactive: 1.17%

row,SMILES,inhibition
1,CC1CCN(C(=O)Oc2c(Cl)cc(Cl)c3cccnc23)CC1,inactive: -2.44%
2,CN(C)C(=O)OCCc1n(C)cc[n+]1C,inactive: -1.83%
3,CC(C)=N/N=C(\N)N[N+](=O)[O-],inactive: 4.19%
4,COc1ccc(C2=NCC(CBr)S2)cc1 (centres undefined),inactive: -0.864%
5,CCc1nc2c(n1)c1c(non1O)c1c2no[n+]1[O-],inactive: 2.71%
6,O=[N+]([O-])c1cc([N+](=O)[O-])c(CCNc2ccccc2)c([N+](=O)[O-])c1,inactive: -3.76%
7,Cc1ccc(NP(=O)(Oc2ccccc2)Oc2ccccc2)nc1,inactive: -0.745%
8,O=[N+]([O-])c1cccc2n[nH]nc12,inactive: -0.441%
9,CC(=O)N1C2C3N(C(C)=O)C1C1N(C(C)=O)C(C(N1C(C)=O)N3C(C)=O)N2C(C)=O,inactive: -0.55%
10,O=[N+]([O-])c1ncn(CCn2ncnc2[N+](=O)[O-])n1,inactive: 0.167%
11,CC(C)(C)C(=O)NC(Sc1ccncn1)C(Cl)(Cl)Cl (centres undefined),inactive: -2.39%
12,O=C(O)CNc1ccc([As](=O)(O)O)cc1,inactive: -1.02%
13,O=[N+]([O-])c1cccc(NC2=NCC(CBr)S2)c1 (centres undefined),inactive: 0.467%
14,O=C(Nc1cc([As](=O)(O)O)ccc1O)c1ccccc1,inactive: -0.858%
15,O=[As](O)(c1ccccc1)c1ccc(O)cc1,inactive: 1.14%
16,O=[N+]([O-])c1ccc(O)c(/C=N/Nc2ccc([N+](=O)[O-])cc2[N+](=O)[O-])c1,inactive: 1.6%
17,O=[N+]([O-])c1ncn(CCn2cnc([N+](=O)[O-])n2)n1,inactive: 0.13%
18,CC(=O)NC(SC(=S)N(C)C)C(Cl)(Cl)Cl (centres undefined),inactive: -0.578%
19,O=C(OC1CN2CCC1CC2)c1cccc(Cl)c1 (centres undefined),inactive: -3.17%
20,Nc1ccc([As](=O)(O)c2ccc([N+](=O)[O-])cc2)cc1,inactive: -1.7%
21,C(Cc1nn[nH]n1)Cc1nn[nH]n1,inactive: 1.35%
22,O=P(Nc1ccccn1)(c1ccc(Br)cc1)c1ccc(Br)cc1,inactive: 1.04%
23,CN(C)C1(CNC(=O)c2ccc(Cl)c(S(N)(=O)=O)c2)CCCCC1,inactive: -1.04%
24,C[C@H]1OP(=O)(Oc2ccccc2)[C@H](O)[C@H](O)[C@H]1N=[N+]=[N-] (some centres undefined),inactive: 0.2%
25,O=P(Nc1nc2ccccc2s1)(c1ccccc1)c1ccccc1,inactive: -0.337%

row,SMILES,inhibition
1,CC(C)C(=O)NC(Sc1ccccc1)C(Cl)(Cl)Cl (centres undefined),inactive: 0.679%
2,O=P(Nc1nccs1)(c1ccccc1)c1ccccc1,inactive: 0.848%
3,c1nnnn1CCn1cnnn1,inactive: -0.646%
4,C[C@@H]1C=CCP(=O)(Oc2ccccc2)O1 (some centres undefined),inactive: 1.02%
5,C[C@H]1OP(=O)(Oc2ccccc2)C[C@@H]2O[C@@H]21 (some centres undefined),inactive: -3.78%
6,CC(=O)c1ccc(N2CC2c2ccncc2)cc1 (centres undefined),inactive: 0.166%
7,CC(=O)Nc1ccc(Oc2c([N+](=O)[O-])cc([N+](=O)[O-])cc2[N+](=O)[O-])cc1,inactive: 0.41%
8,CC(=O)Nc1ccc([As](=O)(O)O)c(O)c1,inactive: 1.09%
9,CCOc1ccc(C2=NCC(CBr)S2)cc1 (centres undefined),inactive: 1.26%
10,O=P1(Nc2nc3ccc(Cl)cc3s2)COc2ccccc2O1 (centres undefined),inactive: 1.3%
11,CC(C)(C)C(=O)NC(Sc1ccccc1)C(Cl)(Cl)Cl (centres undefined),inactive: -0.662%
12,CCC(=O)N1C2C3N(C(=O)CC)C1C1N(C(=O)CC)C(C(N1C(=O)CC)N3C(=O)CC)N2C(=O)CC,inactive: 0.514%
13,O=C(OC1CN2CCC1CC2)c1ccccc1 (centres undefined),inactive: -0.657%
14,Cc1ccc(OP(=O)(Nc2ccccn2)Oc2ccc(C)cc2)cc1,inactive: -2%
15,CC(=O)NC(SC(=S)N(CC(C)C)CC(C)C)C(Cl)(Cl)Cl (centres undefined),inactive: 5.98%
16,COC(=O)c1cc2c(s1)N=C(c1ccccc1)N(C)P2(=O)N1CCOCC1 (centres undefined),inactive: 1.2%
17,CN(C)C(=O)Oc1noc2ccccc12,inactive: 0.884%
18,Cc1ccccc1OP(=O)(Nc1ccccn1)Oc1ccccc1C,inactive: 0.49%
19,CC(NC(=O)COC(=O)C(O)(c1ccccc1)c1ccccc1)c1ccccc1 (centres undefined),inactive: -0.628%
20,CCOC(=O)NC(Sc1ccccc1)C(Cl)(Cl)Cl (centres undefined),inactive: 3.32%
21,Cc1ccc(NP(=O)(Oc2cccc(C)c2)Oc2cccc(C)c2)nc1,inactive: -0.711%
22,c1ccc(-c2nn[nH]n2)c(-c2nn[nH]n2)c1,inactive: 1.3%
23,CCNC(=S)/N=C(\N)N[N+](=O)[O-],inactive: -0.0976%
24,O=C(NC1CCS(=O)(=O)C1)NP(=S)(Oc1ccccc1)Oc1ccccc1 (centres undefined),inactive: 1.65%
25,NC(=O)Nc1ccc([As](=O)(O)O)cc1,inactive: 1.66%

row,SMILES,inhibition
1,CN(C(=O)Cc1ccccc1)[C@@H]1CC[C@]2(CCCO2)C[C@H]1N1CCCC1,inactive: 3.32%
2,CCOP1(=S)c2c(C)nn(CCC#N)c2N=C(c2ccc(F)cc2)N1C (centres undefined),inactive: 1.25%
3,N#CCCN(C(=O)COC(=O)C(O)(c1ccccc1)c1ccccc1)c1ccc(F)cc1,inactive: 0.285%
4,CN(C(=O)Cc1ccc(Cl)c(Cl)c1)[C@H]1CC[C@@]2(CCCO2)C[C@@H]1N1CCCC1,inactive: 0.956%
5,CN(C)C(=O)c1cc([N+](=O)[O-])cc2c1-c1c(cc([N+](=O)[O-])cc1[N+](=O)[O-])C2=O,inactive: 2.37%
6,O=[N+]([O-])c1ccc2c(c1)nnn2O,inactive: 0.528%
7,O=P(Nc1nccs1)(c1ccccc1)c1nc2ccccc2s1 (centres undefined),inactive: 1.26%
8,O=P(Nc1nccs1)(Oc1ccccc1)Oc1ccccc1,inactive: 1.06%
9,CCOP1(=S)c2c(C)nn(CCC#N)c2N=C(c2ccccc2F)N1C (centres undefined),inactive: -0.197%
10,CS(=O)(=O)c1cc([N+](=O)[O-])c2no[n+]([O-])c2c1,inactive: -1.08%
11,Nc1ccccc1[As](=O)(O)c1ccccc1,inactive: 0.274%
12,O=C(O)COc1ccc([As](=O)(O)O)cc1[N+](=O)[O-],inactive: -0.143%
13,Nc1cccc2c([As](=O)(O)O)cccc12,inactive: 9.57%
14,Cc1ccc(NCCc2c([N+](=O)[O-])cc([N+](=O)[O-])cc2[N+](=O)[O-])cc1,inactive: 0.0348%
15,CCCOP(=S)(Nc1nc(N)cc(=O)[nH]1)OCCC,inactive: -1.97%
16,CCOP(=O)(Nc1cccc2ccccc12)OCC,inactive: 3.61%
17,COc1cc(C2NCCC3(OCCO3)C2(C)C)cc(OC)c1OC (centres undefined),inactive: -0.666%
18,O=C(OC1CN2CCC1CC2)c1ccc(Cl)cc1 (centres undefined),inactive: -1.61%
19,CS(=O)(=O)c1ccc(Cl)c(NC(=O)COC(=O)C(O)(c2ccccc2)c2ccccc2)c1,inactive: 0.177%
20,COc1cc(C(=O)NCC2(N3CCOCC3)CCCCC2)cc(Cl)c1OC(C)C,inactive: -2.41%
21,O=[As](O)(O)c1cccnc1,inactive: 0.75%
22,O=[As](O)(c1cccc(O)c1)c1cccc(O)c1,inactive: 2.07%
23,Cc1cccc(OCC(=O)OC2CN3CCC2CC3)c1 (centres undefined),inactive: 0.904%
24,COc1ccccc1CNC(=O)COC(=O)C(O)(c1ccccc1)c1ccccc1,inactive: 0.183%
